Results of unrelated studies side by side (data: NIAID ChemDB).

Shared fields: tests in culture; species: Herpes simplex virus 1

Blank or dashed fields: not listed here.

SMILES,strain,tested at,measure,cells,method,value
CCCCCc1cc2cn(COCCO)c(=O)nc2o1,F,,EC90,VERO,plaque count,16.4 µM
Nc1ccn(C[C@@H](CO)OCP(=O)(O)O)c(=O)n1,KOS HPMPC-resistant,,EC50,HEL,cytopathic effect,2.9 µg/mL
O=c1nc2oc(-c3ccccc3)cc2cn1COCCO,F,,EC90,VERO,plaque count,>100 µM
Cc1cn([C@@H]2O[C@H](CO)[C@@H](O)[C@@H]2O)c(=O)[nH]c1=O,KOS HPMPC-resistant,,EC50,HEL,cytopathic effect,0.082 µg/mL
COP(=O)(CC(=O)O[C@H]1C[C@H](n2cc(CCCl)c(=O)[nH]c2=O)O[C@@H]1CO)OC,BRAND,0.7 µM,inhibition,VERO,cytopathic effect,>25%
CCCCCc1ccc(C#Cc2cn(COCCO)c(=O)[nH]c2=O)cc1,F,,EC90,VERO,plaque count,>10 µM
O=c1[nH]c(=O)n([C@H]2C[C@H](O)[C@@H](CO)O2)cc1I,BRAND,0.3 µM,inhibition,VERO,cytopathic effect,>25%
Nc1nc2c(ncn2COCCOP(=O)(O)C(=O)O)c(=O)[nH]1,L2/R,,EC95,VERO,cytopathic effect,>286 µM
CN1C(=O)C23CC4(C56CC78SSC(CO)(C(=O)N7C5Nc5ccccc56)N(C)C8=O)c5ccccc5NC4N2C(=O)C1(CO)SS3,KOS,,EC50,HeLa,cytopathic effect,>200 µg/mL
COC(=O)P(=O)(O)OC[C@H]1O[C@@H](n2cc(CCCl)c(=O)[nH]c2=O)C[C@@H]1O,BRAND,24.2 µM,inhibition,VERO,cytopathic effect,>25%
O=C(O)P(=O)(O)O,PFA-resistant-2,,EC90,HeLa,virus yield,>1000 µM
Nc1ncc2c(ncn2COC(CO)CO)n1,KOS S2242-resistant,,EC50,HEL,cytopathic effect,1.1 µg/mL
CN1[C@@H]2CC[C@H]1CC(OC(=O)C(CO)c1ccccc1)C2,KOS,,EC50,HeLa,cytopathic effect,0.5 µM
Nc1nc2c(ncn2COCCO)c(=O)[nH]1,TK-,44 µM,inhibition,VERO,cytopathic effect,>25%
O=C(O)P(=O)(O)O,KOS BVDU-resistant,,EC50,HEL,cytopathic effect,35 µg/mL
CCCCCCCCc1cc2cn(COCCO)c(=O)nc2o1,F,,EC90,VERO,plaque count,>100 µM
Nc1ncnc2c1ncn2[C@@H]1O[C@H](CC(N)CC[C@H](N)C(=O)O)[C@@H](O)[C@H]1O,KOS,,EC50,HeLa,cytopathic effect,>200 µg/mL
CCCCCc1ccc(-c2cc3cn(CC=C(CO)CO)c(=O)nc3o2)cc1,F,,EC90,VERO,plaque count,46.2 µM
O=C(CP(=O)(O)O)O[C@H]1C[C@H](n2cc(CCCl)c(=O)[nH]c2=O)O[C@@H]1CO,BRAND,24.2 µM,inhibition,VERO,cytopathic effect,>25%
CCCCCc1ccc(C#Cc2cn(C/C=C/C(O)CO)c(=O)[nH]c2=O)cc1,F,,EC90,VERO,plaque count,16.2 µM
Nc1nc2c(ncn2CCC(CO)CO)c(=O)[nH]1,KOS HPMPA-resistant,,EC50,HEL,cytopathic effect,0.073 µg/mL
CCOC(=O)P(=O)(O)O[C@H]1C[C@H](n2cc(CCCl)c(=O)[nH]c2=O)O[C@@H]1CO,BRAND,234 µM,inhibition,VERO,cytopathic effect,>25%
CCCCCc1ccc(-c2cc3cn(COCCO)c(=O)nc3o2)cc1,F,,EC90,VERO,plaque count,>100 µM
CCOC(=O)CP(=O)(OC)OC[C@H]1O[C@@H](n2cc(I)c(=O)[nH]c2=O)C[C@@H]1O,BRAND,1.9 µM,inhibition,VERO,cytopathic effect,>25%
CC(=O)c1cn(CC=C(CO)CO)c(=O)[nH]c1=O,F,,EC90,VERO,plaque count,>100 µM

Repeating the first 3 entries:

SMILES | strain | tested at | measure | cells | method | value
CCCCCc1cc2cn(COCCO)c(=O)nc2o1 | F |  | EC90 | VERO | plaque count | 16.4 µM
Nc1ccn(C[C@@H](CO)OCP(=O)(O)O)c(=O)n1 | KOS HPMPC-resistant |  | EC50 | HEL | cytopathic effect | 2.9 µg/mL
O=c1nc2oc(-c3ccccc3)cc2cn1COCCO | F |  | EC90 | VERO | plaque count | >100 µM

ECn: concentration that inhibits the pathogen or its effect by n%. Neighbouring rows are from separate reports. Inhibition is in % at the dose shown (toxicity tests: loss of growth or viability).